Results on two sequences are retold here after PMC10593804.

This data set concerns the target StrepHP1021 (Helicobacter pylori) (UniProt O25665). The data set is described as follows: EMSA. Conditions: recombinant protein, protein details: N-terminal Strep, label: 5'-FAM (primer P33), probe letters rebuilt from the primers and the genome. In general terms: A gel shift assay detects complexes by their altered migration in electrophoresis.

Construct, isoform or probe ends are uncertain for at least one entry.

As to “GGAGTAAGAATAGCTTCGAATCGAAAGCGTCTCTAAAGAAAAAGAAACGCATTCCCCCACTTTTAAGGTAGAAACCACTCAATTAGATGTAAAAATCCCAAATTTCAAGCAAAAAAAGGTTAAAAAGGATACAATAAATACAAAAAATGAAATTTAAATAAATGGGAATTTAATGAGAATTTTTTTTGTTATTATGGGACTTGTGTTTTTTGGTTGCACCAGTAAGGTGCATGAGATGAAAAAAAGCCCTTGCACCTTGTATGAAAACAGGTTAAATCTCGCATGAGGATCCCG (double strand) [pcomB8]”, the binding result (affinity comparable to oriC2) was “binds”.

With “GGAGTAAGAATAGCTTCGAATCTATATATTTATAGCCTTAATCGTAAATGCAACAGAAATTTTCTAGTCTAAAGTCGCACCCTTTGTGCAAAAATCGTTTTACAAGAAGAAAGGAAAAAAATGGAAATACAACAAACACACCGCAAAATCAATCGCCCTCTGGTTTCTCTTGCTTTAGTAGGAGCGTTAGTCAGCATCACACCGCAACAAAGTCATGCCGCCTTTTTCACAACCGTGATCATTCCAGCCATTGTTGGGGGGATCGCTACAGGCGCTGCTGTAGGAACGGTCTCAGGGCTTCTTAGCTGGGGGCTCAAACAAGCCG (double strand) [pvacA]”, the binding result is given as “binds”.
